Mutational interference map of HIV-1 RNA dimerization

Sequence of the HIV-1 NL4-3 5' RNA, positions 1 to 437, as numbered in the source:
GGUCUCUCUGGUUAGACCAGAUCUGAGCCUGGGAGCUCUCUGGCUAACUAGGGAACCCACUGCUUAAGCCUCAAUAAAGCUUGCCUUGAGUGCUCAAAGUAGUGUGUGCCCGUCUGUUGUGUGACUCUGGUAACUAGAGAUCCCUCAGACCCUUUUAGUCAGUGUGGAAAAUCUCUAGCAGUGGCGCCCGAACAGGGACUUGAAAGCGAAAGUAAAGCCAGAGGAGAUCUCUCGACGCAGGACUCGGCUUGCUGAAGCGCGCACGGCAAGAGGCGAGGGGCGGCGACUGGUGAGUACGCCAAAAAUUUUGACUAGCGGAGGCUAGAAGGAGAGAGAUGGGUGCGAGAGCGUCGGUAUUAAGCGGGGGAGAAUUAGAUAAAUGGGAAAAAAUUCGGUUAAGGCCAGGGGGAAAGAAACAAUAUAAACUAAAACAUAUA

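Randomly mutated transcripts starting with one, two or three G (1G, 2G, 3G), capped or uncapped, were folded for 30 min at 37 °C. High salt was 300 mM KCl and 5 mM MgCl2, low salt 40 mM KCl and 0.1 mM MgCl2; monomer and dimer were parted on a native gel. Mutation frequencies in the two bands give Kdimer.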

Values are log2 Kdimer, the median over the changes at each position: higher means that changes there hinder dimer formation, below 0 that they favour it.
One numbering serves 1G, 2G and 3G.
A position is written with its base where known.
The source gives no letters past position 437.

position,domain,1G uncapped high-salt,2G capped high-salt,3G uncapped high-salt
A424,none,0.02,-0.06,0.13
A425,none,0.07,0.10,0.21
C426,none,0.03,0.03,0.07
U427,none,0.02,0.08,0.03
A428,none,0.05,0.07,0.07
A429,none,0.08,0.10,0.01
A430,none,0.09,0.05,0.01
A431,none,0.11,0.08,0.06
C432,none,0.08,0.14,-0.11
A433,none,0.12,0.15,0.12
U434,none,-0.03,-0.20,-0.03
A435,none,0.02,0.04,0.07
U436,none,-0.01,0.00,-0.05
A437,none,0.08,0.05,0.14
438,none,0.06,0.02,-0.02
439,none,0.07,0.04,0.03
440,none,0.15,0.14,0.08
441,none,-0.01,-0.03,0.11
442,none,0.05,0.00,0.13
443,none,0.14,0.13,0.13
444,none,0.15,0.09,0.15
445,none,0.12,0.55,0.09
446,none,0.08,0.40,0.16
447,none,-0.07,0.23,-0.01
448,none,-0.05,0.24,0.10
449,none,-0.08,0.27,0.13
450,none,0.14,0.28,0.15
451,none,0.06,0.29,0.17
452,none,-0.03,-0.15,-0.02
453,none,0.06,0.05,0.02
454,none,0.00,0.04,0.14
455,none,0.03,-0.04,-0.06
456,none,0.08,-0.05,-0.02
457,none,0.02,-0.12,0.13
458,none,0.06,0.08,0.11
459,none,0.02,0.12,0.08
460,none,0.16,-0.08,-0.08
461,none,0.04,0.06,0.01
462,none,0.12,-0.02,0.06
463,none,0.03,0.17,0.04
464,none,0.08,0.36,0.07
465,none,0.09,0.12,-0.14
466,none,0.04,0.37,0.18
467,none,0.12,0.26,0.08
468,none,0.07,0.39,0.06
469,none,0.05,0.41,0.13
470,none,0.02,0.09,0.12
471,none,0.00,-0.10,0.11
472,none,0.04,0.03,0.05
473,none,-0.05,0.00,-0.04
474,none,0.08,-0.12,-0.03
475,none,0.11,-0.02,0.07
476,none,0.02,0.07,0.10
477,none,0.03,-0.08,-0.04
478,none,0.05,-0.05,-0.15
479,none,0.04,-0.06,-0.11
480,none,0.05,-0.08,0.12
481,none,-0.12,-0.14,-0.04

7 of these entries, quoted again:

position 454 gave 1G uncapped high-salt 0.00; 2G capped high-salt 0.04; 3G uncapped high-salt 0.14.
position 449 gave 1G uncapped high-salt -0.08; 2G capped high-salt 0.27; 3G uncapped high-salt 0.13.
position 458 gave 1G uncapped high-salt 0.06; 2G capped high-salt 0.08; 3G uncapped high-salt 0.11.
C432 gave 1G uncapped high-salt 0.08; 2G capped high-salt 0.14; 3G uncapped high-salt -0.11.
position 462 gave 1G uncapped high-salt 0.12; 2G capped high-salt -0.02; 3G uncapped high-salt 0.06.
position 456 gave 1G uncapped high-salt 0.08; 2G capped high-salt -0.05; 3G uncapped high-salt -0.02.
position 442 gave 1G uncapped high-salt 0.05; 2G capped high-salt 0.00; 3G uncapped high-salt 0.13.

The measurements come from Ye et al. 2022 (doi:10.1038/s41594-022-00746-2).